A mixed list of measured activities; the numbers were collected in NIAID ChemDB.

All rows: counter-tests on host proteins

Inhibition is in % at the dose shown (toxicity tests: loss of growth or viability).

structure | organism | method | endpoint | target | dose | value
CCCCNC(=O)[C@H](C)C[C@H](O)[C@H](CC1CCCCC1)NC(=O)[C@@H](NC(=O)[C@H](Cc1cccc2ccccc12)NC(=O)OC(C)(C)C)C(C)C |  |  | IC50 | Pepsin |  | 0.8 µM
CC1(C)S[C@H]([C@H](NC(=O)Cc2ccccc2)C(=O)NCc2ccccc2)N[C@H]1C(=O)N[C@H](Cc1ccccc1)[C@H](O)CC(=O)NCc1ccccc1 | Sus domesticus | nucleotide incorporation | IC50 | Pepsin |  | >500 µM
CCCCNC(=O)[C@H](C)C[C@H](O)[C@H](CC1CCCCC1)NC(=O)[C@@H](NC(=O)[C@H](CCCN)NC(=O)OCc1ccccc1)C(C)C |  |  | IC50 | Renin |  | 5.6 µM
CCNC(=O)[C@@H](NC(=O)Cc1ccccc1)[C@@H]1N[C@@H](C(=O)NCCNC(=O)[C@@H]2N[C@@H]([C@H](NC(=O)Cc3ccccc3)C(=O)NCC)SC2(C)C)C(C)(C)S1 | Sus domesticus | nucleotide incorporation | IC50 | Pepsin |  | >500 µM
CO[P@](=O)(c1cc(C)cc(/C=C/C#N)c1)c1c(C(N)=O)[nH]c2ccc(Cl)cc12 | Human |  | IC50 | DNA polymerase gamma |  | 60.1 µM
C[N+]1(CC2CCCCCC2)CCC(NC(=O)C2c3cc(Cl)ccc3Oc3ccc(Cl)cc32)CC1 | Human |  | IC50 | CCR1 |  | 0.00957 µM
Nc1nc(N)nc(-c2ccc(OCc3ccc(Cl)cc3)cc2)n1 | Human | absorbance | IC50 | Dihydrofolate reductase |  | 83.3 µM
O=Cc1ccc(/C=C/c2nsc(=O)o2)o1 | Human | broth dilution / fluorescence | IC50 | Proteasome |  | >10 µM
C=C1C(=O)C[C@@H]2/C=C(\COC(C)=O)CC/C=C(/C=O)[C@H](OC(C)=O)[C@@H](OC(=O)C(C)CC)[C@@H]12 | Mus musculus | MTT / absorbance | IC50 | Dehydrogenase |  | 17.3 µg/mL
c1cc(CN2CCCNCCNCCCNCC2)ccc1CN1CCCNCCNCCCNCC1 | Human | calcium flux | IC50 | CXCR3 |  | >25 µg/mL
O=c1oc(/C=C/c2cccnc2)ns1 | Human | broth dilution / fluorescence | IC50 | Proteasome |  | >10 µM
O=C1CN=C(c2ccccc2)c2ccccc2N1CCCC1CC(Br)=NO1 | Human | fluorescence | inhibition | Cathepsin B | 20 µM | 0%
CCCCNC(=O)[C@H](C)C[C@H](O)[C@H](CC1CCCCC1)NC(=O)[C@@H](NC(=O)[C@@H](NC(=O)OC(C)(C)C)[C@@H](C)O)C(C)C |  |  | IC50 | Pepsin |  | 0.6 µM
O=C(CN1C(=O)CN=C(c2ccccc2)c2ccccc21)N1CC2ON=C(Br)C2C1 | Human | fluorescence | inhibition | Cathepsin B | 20 µM | 0%
CCC[C@H](NC(=O)[C@@H]1[C@H]2CCC[C@H]2CN1C(=O)[C@@H](NC(=O)[C@@H](NC(=O)c1cnccn1)C1CCCCC1)C(C)(C)C)C(=O)C(=O)NC1CC1 |  | substrate cleavage | IC90 | Cathepsin S |  | >100 µM
O=c1cc(-c2ccc(O)c(O)c2)oc2cc(O[C@@H]3O[C@H](CO)[C@@H](O)[C@H](O)[C@H]3OS(=O)(=O)O)cc(O)c12 | Molluscum contagiosum virus |  | IC50 | Topoisomerase |  | >200 µM
O=c1oc(/C=C/c2ccccn2)ns1 | Human | broth dilution / fluorescence | IC50 | Proteasome |  | >10 µM

Blank or dashed fields: not listed here. ICn: concentration for n% inhibition. Lines come from different laboratories, so protocols vary.